Measurements from ChEMBL document CHEMBL5728271, “Cyclohexene compounds and use thereof” (2021).

Chains of the proteins cited; added tags and fusions are not shown.
UniProt P06820, whole entry, looked up: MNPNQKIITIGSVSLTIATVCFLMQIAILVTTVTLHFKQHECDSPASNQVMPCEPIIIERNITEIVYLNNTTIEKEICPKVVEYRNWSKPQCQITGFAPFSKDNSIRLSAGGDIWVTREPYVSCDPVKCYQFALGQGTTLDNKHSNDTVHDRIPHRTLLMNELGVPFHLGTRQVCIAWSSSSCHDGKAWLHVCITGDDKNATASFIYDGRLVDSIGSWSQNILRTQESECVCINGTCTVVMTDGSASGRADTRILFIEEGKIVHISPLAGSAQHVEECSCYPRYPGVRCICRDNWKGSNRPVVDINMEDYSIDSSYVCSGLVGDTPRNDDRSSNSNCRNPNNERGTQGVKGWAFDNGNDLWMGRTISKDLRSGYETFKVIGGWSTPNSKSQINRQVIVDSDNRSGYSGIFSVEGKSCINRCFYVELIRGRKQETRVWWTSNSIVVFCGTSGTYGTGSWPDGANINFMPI

Molecular target: Neuraminidase (Influenza A virus, UniProt P06820)
Settings: strain A/Tokyo/3/1967 H2N2

COCCO[C@@H]1CCCN([C@@H]2C=C(OC=O)C[C@H](N)[C@H]2NC(C)=O)C1
IC50: < 1 nM

COCCO[C@@H]1CCCN([C@@H]2C=C(OC=O)C[C@H](NC(=N)N)[C@H]2NC(C)=O)C1
IC50: < 1 nM
